Reference: PubChem BioAssay AID485294 (National Center for Advancing Translational Sciences (NCATS), 2010)
This is a selection; strong and weak results do not stand in their true shares. Inconclusive results are not listed. Some structures show a salt or complex split into parts, the way the source records it. Active and inactive are the calls of the source. Calls come from the whole dose curve; as a rule, active = well fitted inhibition curve with a large enough effect; inconclusive = small, poorly fitted or top-dose-only effect; inactive = flat fitted curve, though single readings scatter.

By UniProt entry, the sequences of proteins in these tests, tags left out.
UniProt P00811, whole entry: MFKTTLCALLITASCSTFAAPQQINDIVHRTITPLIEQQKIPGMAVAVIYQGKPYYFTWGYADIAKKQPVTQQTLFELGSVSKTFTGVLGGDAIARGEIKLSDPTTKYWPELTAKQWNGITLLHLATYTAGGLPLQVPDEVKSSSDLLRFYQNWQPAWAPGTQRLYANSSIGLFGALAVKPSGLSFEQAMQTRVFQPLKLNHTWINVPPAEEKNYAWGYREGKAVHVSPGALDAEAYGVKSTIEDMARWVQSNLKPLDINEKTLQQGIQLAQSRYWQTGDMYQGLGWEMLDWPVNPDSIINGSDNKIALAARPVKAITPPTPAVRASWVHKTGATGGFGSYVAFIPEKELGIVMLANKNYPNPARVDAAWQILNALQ

target: Beta-lactamase (Escherichia coli (strain K12)) (UniProt P00811); assay: qHTS Inhibitors of AmpC Beta-Lactamase (assay with detergent); conditions: AmpC hydrolysis of nitrocefin, absorbance 480 nm, 0.01% Triton; at 114 µM (top of the series);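 note: 0% = no-compound wells and -100% = no-enzyme wells; nearly all actives have a fitted effect of over 25% in size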

Compound	activity change, negative = inhibition
CN(C)C1(CNC(=O)c2cccc(C#N)c2)CCCCC1	inactive: -8.54%
c1ccc(CN2CCC(Nc3ccccc3)CC2)cc1	inactive: 2.46%
CCCN1CCC(Nc2cc(OC)cc(OC)c2)CC1	inactive: -2.73%
O=C(NCC1(N2CCOCC2)CCCCC1)c1ccccc1	inactive: 21.3%
N#Cc1ccc(C(=O)NCC2(N3CCCCC3)CCCCC2)cc1	inactive: -1.16%
O=C(NCC1(N2CCOCC2)CCCCC1)c1ccccc1[N+](=O)[O-]	inactive: 23.1%
O=C(NCC1(N2CCOCC2)CCCCC1)c1ccc([N+](=O)[O-])cc1	inactive: 24.9%
CC(C)(C)OC(=O)N1CCC(N(C(=O)c2ccccc2)c2ccc(Cl)cc2)CC1	inactive: -10.4%
CCOC(=O)N1CCC(Nc2ccc(C)cc2)CC1	inactive: -8.76%
N/C(=N\O)c1c(N)no[n+]1[O-]	inactive: -11.5%
O=C(OC1CN2CCC1CC2)C1c2ccccc2C=Cc2ccccc21 (centres undefined)	inactive: -10.4%
O=C(O)c1cccc(Nc2c([N+](=O)[O-])cc([N+](=O)[O-])cc2[N+](=O)[O-])c1	inactive: -11.3%
O=C(NCC1(N2CCOCC2)CCCCC1)c1cc(Br)ccc1Cl	inactive: -5.66%
COc1ccc(C(=O)NCC2(N3CCOCC3)CCCCC2)cc1OC	inactive: 7.49%
COc1cc(C(=O)NCC2(N3CCOCC3)CCCCC2)cc(OC)c1OC	inactive: 17.8%
COc1cc(OC)cc(C(=O)NCC2(N3CCOCC3)CCCCC2)c1	inactive: 3.02%
COc1cccc(C(=O)N(c2cc(C)cc(C)c2)C2CCN(C(=O)OC(C)(C)C)CC2)c1	inactive: -2.36%
CCC(CO)(C(=O)OC1CN2CCC1CC2)c1ccccc1 (centres undefined)	inactive: -12.6%
CN1CCC(Nc2ccc(Cl)cc2)CC1	inactive: -0.973%
CCCOc1ccc(C)cc1CN(CCCl)CCCl	inactive: -6.89%
CCOc1ncccc1C(=O)NCC1(N2CCOCC2)CCCCC1	inactive: 3.88%
CCCOc1ccc(C(=O)NCC2(N(C)C)CCCCC2)cc1	inactive: 3.48%
Cc1ccccc1C(=O)NCC1(N(C)C)CCCCC1	inactive: 2.55%
O=C(NCC1(N2CCCCC2)CCCCC1)c1ccco1	inactive: -7.64%
CC(C)(C)c1ccc(C(=O)NCC2(N3CCOCC3)CCCCC2)cc1	inactive: 16%

Compound	activity change, negative = inhibition
CN(C)c1ccc(C(=O)NCC2(N3CCCCC3)CCCCC2)cc1	inactive: 4.36%
CN(C)C1(CNC(=O)c2ccc(C(C)(C)C)cc2)CCCCC1	inactive: 15.6%
COc1cc(OC)cc(C(=O)NCC2(N3CCCCC3)CCCCC2)c1	inactive: -2.16%
Cc1ccc(C(=O)NCC2(N3CCCCC3)CCCCC2)o1	inactive: -12.8%
CCOC(=O)N1CCC(Nc2cccc(C)c2)CC1	inactive: -0.114%
COc1cc(C(=O)NCC2(N(C)C)CCCCC2)ccc1OC(F)F	inactive: 2.3%
Cc1ccc(OCC(C)C)c(CN(CCCl)CCCl)c1	inactive: 5.27%
O=C(NCC1(N2CCOCC2)CCCCC1)c1ccc(Cl)cc1	inactive: -6%
CCOc1ccc(C)cc1CN(CCCl)CCCl	inactive: 2.34%
COc1ccccc1C(=O)NCC1(N2CCOCC2)CCCCC1	inactive: 28.2%
O=C(NCC1(N2CCCCC2)CCCCC1)c1ccc(F)cc1	inactive: -4.98%
COc1ccc(NC2CCN(CCc3ccccc3)CC2)c(OC)c1	inactive: -12.9%
CCOC(=O)N1CCC(Nc2ccc(F)cc2)CC1	inactive: -10.4%
O=C(NCC1(N2CCCCC2)CCCCC1)c1ccc(Cl)nc1	inactive: -3.49%
Cc1cc(C)cc(N(C(=O)c2ccccc2)C2CCN(C(=O)OC(C)(C)C)CC2)c1	inactive: -11.7%
N#CC1(Nc2ccccc2)CCN(Cc2ccccc2)CC1	inactive: -5.48%
O=C(NCC1(N2CCCCC2)CCCCC1)c1ccc(Cl)s1	inactive: 4.98%
O=C(OC1CN2CCC1CC2)C1c2ccccc2Oc2ccccc21 (centres undefined)	inactive: -0.914%
COc1ccc(Cl)cc1C(=O)NCC1(N2CCOCC2)CCCCC1	inactive: -7.02%
CCOC(=O)N1CCC(Nc2ccc(OC)cc2)CC1	inactive: -6.84%
COc1ccc(C(=O)NCC2(N3CCCCC3)CCCCC2)cc1	inactive: 2.89%
COc1ccc(C(=O)NCC2(N3CCCCC3)CCCCC2)c(OC)c1OC	inactive: -7.26%
CC(C)(C)OC(=O)N1CCC(N(C(=O)c2ccccc2)c2ccc(F)cc2)CC1	inactive: 1.69%
O=C(NCC1(N2CCCCC2)CCCCC1)c1ccc(=O)[nH]c1	inactive: 5.85%
CSc1ccccc1C(=O)NCC1(N2CCCCC2)CCCCC1	inactive: -5.04%

Compound	activity change, negative = inhibition
O=C(OC1CN2CCC1CC2)c1ccc([N+](=O)[O-])cc1 (centres undefined)	inactive: 3.59%
O=C(NCC1(N2CCCCC2)CCCCC1)c1cncc(Br)c1	inactive: 4.87%
COc1ccc2c(c1O)-c1c(O)c(OC)cc3c1[C@H](C2)[N+](C)(C)CC3.O=[N+]([O-])c1cc([N+](=O)[O-])c([O-])c([N+](=O)[O-])c1[O-]	inactive: 4.87%
CCCCOc1ccccc1C(=O)NCC1(N2CCOCC2)CCCCC1	inactive: 3.31%
O=C(NCC1(N2CCOCC2)CCCCC1)c1ccccc1Br	inactive: 0.828%
CCCOc1ccc(C(=O)NCC2(N(C)C)CCCCC2)cc1OC	inactive: -4.19%
CC(C)c1ccc(NC2CCN(C(=O)OC(C)(C)C)CC2)cc1	inactive: -12.7%
COc1ccc(CN(CCCl)CCCl)cc1Cl	inactive: -1.72%
O=[N+]([O-])c1cc([N+](=O)[O-])c(OC2CCCCC2O)c([N+](=O)[O-])c1 (centres undefined)	inactive: -14.4%
CN(C)c1cccc(C(=O)NCC2(N3CCCCC3)CCCCC2)c1	inactive: 2.43%
COc1cc(OC)c(C(=O)NCC2(N(C)C)CCCCC2)cc1OC	inactive: -7.29%
O=[N+]([O-])c1cc([N+](=O)[O-])c(NCC2CCS(=O)(=O)C2)c([N+](=O)[O-])c1 (centres undefined)	inactive: 6.38%
CCCOc1cccc(C(=O)NCC2(N3CCOCC3)CCCCC2)c1	inactive: -4.07%
COc1cc(C(=O)NCC2(N3CCCCC3)CCCCC2)ccc1OC(F)F	inactive: -5.54%
O=C(NCC1(N2CCOCC2)CCCCC1)c1cc(=O)[nH]c2ccccc12	inactive: -7.95%
CN1CCN(CCOC(=O)C(O)(c2ccccc2)c2ccccc2)CC1	inactive: -14.6%
COc1ccc(NC2CCN(C(=O)OC(C)(C)C)CC2)cc1	inactive: 1.21%
CC(C)c1ccc(C(=O)NCC2(N3CCOCC3)CCCCC2)cc1	inactive: 15%
O=C(NCC1(N2CCCCC2)CCCCC1)c1ccc(OC(F)F)cc1	inactive: -14.2%
CCN1CCC(Nc2ccc(Cl)cc2)CC1	inactive: -1.6%
N#CC1(Nc2ccccc2)CCN(CCc2ccccc2)CC1	inactive: 10.5%
CSc1ccc(C(=O)NCC2(N3CCOCC3)CCCCC2)cc1	inactive: 0%
O=C(NCC1(N2CCCCC2)CCCCC1)c1cccc([N+](=O)[O-])c1	inactive: 2.95%
CCOc1ccc(C(=O)NCC2(N3CCOCC3)CCCCC2)cc1	inactive: 23.4%
